Results of unrelated studies side by side (data: NIAID ChemDB).

All rows: cytotoxicity tests; cell line: VERO; read by: MTT; endpoint: CC50

Conditions beyond the fields shown may differ between rows. CCn is the concentration with n% toxicity to the cells. a–b is a range or a potency band.

{"compound": "O=C1C(=O)c2c(nc3ccccn23)-c2ccccc21", "result": ">252 µM"}
{"compound": "Fc1cccc2nc3c(cnc4c3cnn4-c3ccccc3)c(Cl)c12", "result": "600 µM"}
{"compound": "O=C(O)c1c2n(c3cc(N4CCC5(CC4)OCCO5)c(F)cc3c1=O)CS2", "result": ">159 µM"}
{"compound": "O=c1[nH]c(=O)n([C@H]2C[C@H](O)[C@@H](CO)O2)cc1C#Cc1cc2ccc3cccc4ccc(c1)c2c34", "result": "<80 µM"}
{"compound": "O=[N+]([O-])c1ccnc(NC(=S)Nc2ncc(C3CCC3)o2)c1", "result": "196 µM"}
{"compound": "COc1cc2c(cc1OC)C1=NN(C(=O)Nc3ccc(Cl)cc3)C(c3ccc(F)cc3)C1C2", "result": ">133.6 µM"}
{"compound": "CC(C)(C)NC(=O)C1c2ccccc2CCN1c1cc2c(cc1[N+](=O)[O-])c(=O)c(C(=O)O)c1n2CS1", "result": "61.44 µM"}
{"compound": "CC[C@@H](C(C)C)[C@@H](O)[C@H](O)[C@@H](C)[C@H]1CC[C@H]2[C@@H]3CC(=O)[C@@]4(O)C[C@@H](OC(C)=O)CC[C@]4(C)[C@H]3CC[C@]12C", "result": "230 µM"}
{"compound": "CCCCC1C(=O)N(c2ccccc2)N(c2ccc(O)cc2)C1=O", "result": ">200 µM"}
{"compound": "Oc1[nH]c2ccc(OC(F)(F)F)cc2c1N=NC(=S)Nc1ccc(F)cc1", "result": "2.536 µg/mL"}
{"compound": "COc1ccc(/C=N/NC(=O)c2cnc3cc(F)ccc3c2NC(CSc2ccccc2)CC(=O)N(C)C)cc1O", "result": ">62.5 µg/mL"}
{"compound": "Oc1c(N=NC(=S)Nc2ccc(Cl)cc2)c2cc(OC(F)(F)F)ccc2n1CN1CCOCC1", "result": "9.713 µg/mL"}
{"compound": "FC(F)(F)Oc1ccc(-c2cc3ccccn3c2)cc1", "result": "100 µM"}
{"compound": "Cc1nn(-c2ccc(C(N)=O)c(NC3CCC(O)CC3)c2)c2c1C(=O)CC(C)(C)C2", "result": "27.06 µg/mL"}
{"compound": "COc1cc2c(cc1OC)C(=O)[C@]1(C2)[C@@H](c2ccccc2Cl)[C@@H]2CSCN2[C@@]12C(=O)N(N1CCOCC1)c1ccccc12", "result": ">62.5 µg/mL"}
{"compound": "CCCCc1nc(Cl)c(C2C(C(=O)Nc3ccccc3[N+](=O)[O-])=C(C)NC(C)=C2C(=O)Nc2ccccc2[N+](=O)[O-])[nH]1", "result": "9.1 µg/mL"}
{"compound": "O=[N+]([O-])c1ccc(NC(=S)Nc2ncc(C3CCC3)o2)cc1", "result": "196 µM"}
{"compound": "CCOC(=O)C1=C(C)NC(C)=C(C(=O)OCC)C1c1cn(-c2ccccc2)nc1-c1ccc(Br)cc1", "result": ">10 µg/mL"}
{"compound": "Oc1c(N=NC(=S)Nc2ccc(Br)cc2)c2cc(OC(F)(F)F)ccc2n1CN1CCOCC1", "result": "7.453 µg/mL"}
{"compound": "c1ccc(-c2cc3ccccn3c2)cc1", "result": "100–500 µM"}
{"compound": "CC1CN(c2cc3c(cc2[N+](=O)[O-])c(=O)c(C(=O)O)c2n3CS2)CC(C)O1", "result": "79.84 µM"}
{"compound": "Fc1ccc2cc(-c3ccccc3)cn2c1", "result": ">500 µM"}
{"compound": "O=C(O)Cn1cc(C#Cc2ccc3c4cccc5cccc(c6cccc2c63)c54)c(=O)[nH]c1=O", "result": ">20 µM"}
{"compound": "CCOc1ccc(-c2c3cc(O)c(=O)cc-3oc3cc(O)c(O)cc23)cc1", "result": ">100 µM"}
{"compound": "N[C@@H](Cc1ccc(-c2ccccc2)cc1)C(=O)O", "result": ">400 µM"}
{"compound": "CC(C)(C)C(=O)OCn1c(=O)c(C#Cc2ccc3c4cccc5cccc(c6cccc2c63)c54)cn(CC(=O)NCCCCO)c1=O", "result": "2–6 µM"}
{"compound": "CCCCCCCC/C=N/NC(=O)c1cnc2cccc(C(F)(F)F)c2c1NC(CSc1ccccc1)CC(=O)N(C)C", "result": ">62.5 µg/mL"}
{"compound": "Cc1ccc2[nH]c(O)c(N=NC(=S)NC3CCCCC3)c2c1", "result": "1.572 µg/mL"}
{"compound": "COc1ccc([C@H]2[C@@H]3CSCN3[C@@]3(C(=O)Nc4ccc(OC(F)(F)F)cc43)[C@@]23Cc2cc(OC)c(OC)cc2C3=O)cc1OC", "result": ">62.5 µg/mL"}
{"compound": "N#Cc1ccc(-c2cc3ccccn3c2)cc1", "result": ">500 µM"}
{"compound": "O=C(Nn1c(-c2ccccc2)ccc1-c1ccccc1)c1ccncc1", "result": ">100 µg/mL"}
{"compound": "Fc1ccc(NC(=S)Nc2ncc(C3CCC3)o2)cc1", "result": ">215 µM"}
{"compound": "Cc1ccc2[nH]c(O)c(N=NC(=S)Nc3ccccc3)c2c1", "result": "1.063 µg/mL"}
{"compound": "CC(C)(CO)[C@@H](O)CNC(=O)Cn1cc(C#Cc2ccc3c4cccc5cccc(c6cccc2c63)c54)c(=O)[nH]c1=O", "result": ">20 µM"}
{"compound": "O=C(N/N=C(\\c1nc2ccc([N+](=O)[O-])cc2[nH]c1=O)C(O)c1ccc([N+](=O)[O-])cc1)c1ccncc1", "result": ">130 µM"}
{"compound": "CC[C@@H](C(C)C)[C@@H](O)[C@H](O)[C@@H](C)[C@H]1CC[C@H]2[C@@H]3CC(=O)[C@H]4C[C@H](O)[C@H](O)C[C@]4(C)[C@H]3CC[C@]12C", "result": "209 µM"}
{"compound": "CCCCc1nc(Cl)c(C2C(C(=O)Nc3ccccc3F)=C(C)NC(C)=C2C(=O)Nc2ccccc2F)[nH]1", "result": ">10 µg/mL"}
{"compound": "CO[C@@]12[C@H](COC(N)=O)C3=C(C(=O)C(C)=C(N)C3=O)N1C[C@H]1[C@@H]2N1C(=O)c1ccc(Cl)c(Cl)c1", "result": "3.75 µM"}
{"compound": "Clc1ccc(OC(Cn2nnc3ccccc32)c2ccc(Cl)cc2Cl)cc1", "result": ">100 µg/mL"}
{"compound": "Brc1ccc(-c2cc3ccccn3c2)cc1", "result": ">500 µM"}
{"compound": "C=C(C)[C@@H]1CCc2c(O)c(O)c(=O)cc(C)c2C1", "result": ">100 µM"}
{"compound": "O=C(Cn1nnc2cc3cccnc3c(Cl)c21)Cn1nnc2cc3cccnc3c(Cl)c21", "result": ">100 µM"}
{"compound": "COc1cc2c(cc1OC)C(=O)[C@]1(C2)[C@@H](c2ccccc2)[C@@H]2CSCN2[C@@]12C(=O)N(N1CCOCC1)c1ccccc12", "result": ">62.5 µg/mL"}
{"compound": "CN(C)C(=O)CC(CSc1ccccc1)Nc1c(C(=O)N/N=C/c2ccc(F)cc2)cnc2cc(F)ccc12", "result": ">62.5 µg/mL"}
{"compound": "CC(C)c1ccc(O)c(O)c(=O)c1", "result": ">100 µM"}
{"compound": "c1ccn2cc(-c3ccoc3)cc2c1", "result": ">500 µM"}
{"compound": "c1ccc(-c2ccc(-c3nc4cc5ncccc5cc4[nH]3)cc2)cc1", "result": ">80 µM"}
{"compound": "COc1cc2c(cc1OC)C1=NN(C(=O)Nc3ccc(Cl)cc3)C(c3ccncc3)C1C2", "result": ">139.2 µM"}
{"compound": "CN(C)C(=O)CC(CSc1ccccc1)Nc1c(C(=O)N/N=C/c2ccc(F)cc2)cnc2cccc(C(F)(F)F)c12", "result": ">62.5 µg/mL"}
{"compound": "O=c1[nH]c(=O)n([C@H]2C[C@H](O)[C@@H](CO)O2)cc1C#CC#Cc1ccc2ccc3cccc4ccc1c2c34", "result": ">20 µM"}
{"compound": "Cn1cc(NC(=O)c2cc(NC(=O)CCCCCCCCC(=O)Nc3cc(C(=O)Nc4cc(C(=O)NCCC(=N)N)n(C)c4)n(C)c3)cn2C)cc1C(=O)NCCC(=N)N", "result": "54.22 µM"}
{"compound": "FC(F)(F)c1ccccc1NC(=S)Nc1ncc(C2CCC2)o1", "result": ">183 µM"}
{"compound": "CCOC(=O)C1=C(C)NC(C)=C(C(=O)OCC)C1c1cn(-c2ccccc2)nc1-c1ccccc1", "result": ">10 µg/mL"}
{"compound": "CN(C)C(=O)CC(CSc1ccccc1)Nc1c(C(=O)N/N=C/c2ccccc2F)cnc2cc(F)ccc12", "result": ">62.5 µg/mL"}
{"compound": "Clc1ccc(OC(Cn2cc(C3CCCCC3)nn2)c2ccc(Cl)cc2Cl)cc1", "result": ">12.5 µg/mL"}
{"compound": "Brc1sccc1-c1cc2ccccn2c1", "result": "500 µM"}
{"compound": "COc1cc2c(cc1OC)C(=O)[C@]1(C2)[C@@H](c2ccccc2Cl)[C@@H]2CSCN2[C@@]12C(=O)Nc1ccc(OC(F)(F)F)cc12", "result": ">62.5 µg/mL"}
{"compound": "CC(=O)c1c(-c2ccc(C#N)cc2)cc2ccccn12", "result": ">500 µM"}
{"compound": "O=C(O)c1cn2c(n1)CN(c1cc3c(cc1[N+](=O)[O-])c(=O)c(C(=O)O)c1n3CS1)CC2", "result": "141 µM"}
{"compound": "CCCCCCCCCCCCCCCC(=O)NS(=O)(=O)OC[C@H]1O[C@@H](n2cnc3c(N)ncnc32)[C@H](O)[C@@H]1O", "result": "0.3 µg/mL"}